Anti-infective test results gathered from many reports (values: NIAID ChemDB through PubChem).

Common to all: growth or infection tests; agent: HIV-1; cell line: MT-4; endpoint: EC50

Rows are shuffled and stem from different studies. ECn: concentration that inhibits the pathogen or its effect by n%.

CC(=O)Oc1ccc(/C=C/C(=O)O[C@@H](C(=O)O)[C@@H](OC(=O)/C=C/c2ccc(OC(C)=O)c(OC(C)=O)c2)C(=O)O)cc1OC(C)=O ; strain: NL4-3 ; mutations: DS-resistant ; method: cytopathic effect / MTT ; value: >74 µM
CC(=O)Nc1ccc(N2C(=O)c3ccc(Cl)cc3C2=O)c(C)c1 ; strain: IIIB ; method: MTT / absorbance ; value: 0.033 µM
C#Cc1ccc(Nc2nccc(Oc3c(C)cc(-c4cn(Cc5ccccc5[N+](=O)[O-])nn4)cc3C)n2)cc1 ; strain: IIIB ; mutations: Y188L ; method: MTT ; value: >7.22 µM
Fc1ccc2c(c1)nc1n2C(c2c(F)cccc2F)SC1 ; strain: IIIB ; method: cytopathic effect / MTT ; value: 5.2 µM
CC(C)OC(=O)[C@H](C)NP(=O)(OC[C@H]1C=C[C@@H](n2cnc3c(N)ncnc32)C1)Oc1ccccc1 ; strain: IIIB ; method: cytopathic effect / MTS ; value: 0.425 µM
C[C@H](Sc1nc(N)cc(Cl)n1)c1cc2ccoc2cn1 ; strain: DLV-resistant MF (RT-P236L) ; mutations: RT-P236L ; method: p24 ; value: <0.008 µM
COc1c(O)c(I)c2c(c1OC)-c1c(c(I)c(O)c(OC)c1OC)C[C@H](C)[C@H](C)C2 ; strain: IIIB ; method: cytopathic effect / MTT ; value: 0.39 µM
Cc1cc(C)c(Nc2ccc([N+](=O)[O-])c(NC3CCN(Cc4ccc(S(N)(=O)=O)cc4)CC3)n2)c(C)c1 ; strain: IIIB ; method: MTT ; value: 0.0051 µg/mL
C#Cc1ccc(Nc2nccc(Oc3c(C)cc(-c4cn(Cc5ccccc5)nn4)cc3C)n2)cc1 ; strain: IIIB ; mutations: Y188L ; method: MTT ; value: >8.55 µM
Cc1cc(C#N)cc(C)c1Oc1ccc([N+](=O)[O-])c(NC2CCN(Cc3ccc(S(C)(=O)=O)cc3)CC2)n1 ; strain: IIIB ; method: MTT ; value: 0.01 µg/mL
C[C@H](NP(=O)(OC[C@H]1C=C[C@@H](n2cnc3c(N)ncnc32)C1)Oc1ccccc1)C(=O)OC(C)(C)C ; strain: IIIB ; method: cytopathic effect / trypan blue ; value: 8.19 µM
Cc1cn([C@H]2C[C@@H](N=[N+]=[N-])C[C@@H](CO)O2)c(=O)[nH]c1=O ; strain: IIIB ; value: >333 µM
Cc1cn([C@H]2C[C@H](N=[N+]=[N-])[C@@H](CO)O2)c(=O)[nH]c1=O ; mutations: Raltegravir-resistant IN Q148H/G140S ; value: 0.002 µM
Fc1cc2nc3n(c2cc1F)C(c1c(Cl)cccc1Cl)SC3 ; strain: IIIB ; method: cytopathic effect / MTT ; value: >17.6 µM
C#Cc1ccc(Nc2nccc(Oc3c(C)cc(-c4cn(CCCC(=O)OC)nn4)cc3C)n2)cc1 ; strain: IIIB ; mutations: Y188L ; method: MTT ; value: >20.15 µM
Cc1cn([C@H]2C[C@H](N=[N+]=[N-])[C@@H](CO)O2)c(=O)[nH]c1=O ; strain: IIIB ; method: MTT / absorbance ; value: 3.81 µM
O=C1N(Cc2ccc(CO)cc2)[C@H](Cc2ccccc2)[C@H](O)[C@@H](O)[C@@H](Cc2ccccc2)N1Cc1ccc(CO)cc1 ; strain: NL4-3 ; mutations: PR-L10R M46I V82T ; method: p24 ; value: <0.2 µM
Cc1cc(NC(=S)c2ccc(Cl)cc2)ccc1N1C(=O)c2ccc(Cl)cc2C1=O ; strain: IIIB ; method: MTT / absorbance ; value: 0.18 µM
CC(C)(C)OC(=O)N[C@@H](Cc1ccccc1)C[C@H](O)[C@H](Cc1ccccc1)NC(=O)c1c(Cl)cccc1Cl ; strain: IIIB ; method: cytopathic effect / MTT ; value: 10 µM
Cc1cn([C@H]2C[C@H](N=[N+]=[N-])[C@@H](CO)O2)c(=O)[nH]c1=O ; strain: FO-01.95 ; method: cytopathic effect ; value: 0.034 µM
CCOc1cc(/C=C2\SC(=O)N(CC(=O)c3ccccc3)C2=O)c(Br)cc1OCc1ccc(C(=O)O)cc1 ; strain: IIIB ; method: MTT / absorbance ; value: 3.99 µM
CCc1cc(NCc2nc3c(Cl)ccc(Cl)c3o2)c(=O)[nH]c1C ; strain: RF ; method: p24 ; value: <0.05 µM
CC(C)CN(C[C@@H](O)[C@H](Cc1ccccc1)NC(=O)[C@H](CC(N)=O)NC(=O)c1ccc2ccccc2n1)C(=O)NC(C)(C)C ; strain: NL4-3 ; mutations: PR-M46I V82T I84V ; method: p24 ; value: <0.8 µM
CC(=S)Nc1ccc(N2C(=O)c3ccc(Cl)cc3C2=O)c(C)c1 ; strain: IIIB ; method: MTT / absorbance ; value: 0.099 µM
CC(C)Nc1cccnc1N1CCN(C(=O)c2cc3cc(NS(C)(=O)=O)ccc3[nH]2)CC1 ; strain: IIIB ; method: MTT ; value: 0.107 µM
O=c1[nH]cnc2c1ncn2[C@H]1CC[C@@H](CO)O1 ; strain: NI-10.93 (HXB2 RT T69N K70R Q151M) ; mutations: RT-T69N K70R Q151M ; method: cytopathic effect ; value: >100 µM
Cc1cc(C#N)cc(C)c1Oc1ccc(N)c(NC2CCN(Cc3ccc(S(N)(=O)=O)cc3)CC2)n1 ; strain: IIIB ; method: MTT ; value: 0.053 µg/mL
FC(F)(F)c1ccc2c(c1)nc1n2C(c2c(Cl)cccc2Cl)SC1 ; strain: IIIB ; method: cytopathic effect / MTT ; value: >25.9 µM
C#Cc1ccc(Nc2nccc(Oc3c(C)cc(-c4cn(CC(=O)Nc5ccc(S(C)(=O)=O)cc5)nn4)cc3C)n2)cc1 ; strain: RES056 ; method: MTT ; value: >6.36 µM
Cc1ccc(C(=S)Nc2ccc(N3C(=O)c4ccc(Cl)cc4C3=O)c(C)c2)cc1 ; strain: IIIB ; method: MTT / absorbance ; value: 0.083 µM
COC(=O)[C@H](C)NP(=O)(OC[C@H]1C=C[C@@H](n2cnc3c(N)ncnc32)C1)Oc1ccc(Cl)c(Cl)c1 ; strain: IIIB ; method: cytopathic effect / trypan blue ; value: 0.12 µM
Cc1cc(C#N)cc(C)c1Oc1ccc(N)c(NC2CCN(Cc3ccc(C(N)=O)cc3)CC2)n1 ; strain: IIIB ; mutations: Resistant strain (K103N + Y181C) ; method: MTT ; value: 1.1 µM
CC(C)Nc1cccnc1N1CCN(C(=O)c2cc3cc(NS(C)(=O)=O)ccc3[nH]2)CC1 ; strain: BI-03.97 (HXB2(RT-A62V S68G T69D V75I F77L F116Y Q151M)) ; mutations: RT-A62V S68G T69D V75I F77L F116Y Q151M ; method: cytopathic effect ; value: 0.04 µM
Cc1cc(C)c(Oc2ccc([N+](=O)[O-])c(NC3CCN(Cc4ccc(C(N)=O)cc4)CC3)n2)c(C)c1 ; strain: IIIB ; method: MTT ; value: 0.012 µg/mL
COc1ccc2c(c1)nc1n2C(c2c(F)cccc2Cl)SC1 ; strain: IIIB ; method: cytopathic effect / MTT ; value: >1.8 µM
COC(=O)[C@H](CCCCN)NP(=O)(OC[C@H]1C=C[C@@H](n2cnc3c(N)ncnc32)C1)Oc1ccccc1 ; strain: IIIB ; method: cytopathic effect / MTS ; value: 25 µM
Cc1ccnc2c1NC(=O)c1cccnc1N2C1CC1 ; strain: RT-190A ; mutations: RT-G190A ; method: cytopathic effect / MTT ; value: 7.94 µM
Cc1cccc2c1nc1n2C(c2c(F)cccc2Cl)SC1 ; strain: IIIB ; method: cytopathic effect / MTT ; value: 1.9 µM
CC(C)c1nc(CN(C)C(=O)N[C@H](C(=O)N[C@@H](Cc2ccccc2)C[C@H](O)[C@H](Cc2ccccc2)NC(=O)OCc2cncs2)C(C)C)cs1 ; strain: NL4-3 ; mutations: PR-I84V ; method: p24 ; value: <0.8 µM
COc1ccc2c(c1)nc1n2C(c2c(F)cccc2F)SC1 ; strain: IIIB ; method: cytopathic effect / MTT ; value: >7.8 µM
Cc1cc(N=C/C=C/c2ccccc2)ccc1N1C(=O)c2ccc(Cl)cc2C1=O ; strain: IIIB ; method: MTT / absorbance ; value: 0.235 µM
C=C1[C@H](CO)[C@@H](O)C[C@@H]1n1cnc2c(=O)[nH]c(N)nc21 ; strain: IIIB ; mutations: F227L and V106A ; method: MTT ; value: 0.014 µM
COC(=O)[C@@H]1CCCN1P(=O)(OC[C@H]1C=C[C@@H](n2cnc3c(N)ncnc32)C1)Oc1ccccc1 ; strain: IIIB ; method: cytopathic effect / MTS ; value: 10 µM
Cc1ccnc2c1NC(=O)c1cccnc1N2C1CC1 ; strain: 1506-RS (RT-Y188L) ; mutations: RT-Y188L ; method: cytopathic effect / MTT ; value: >100 µM
CC[C@H](C)[C@H](NP(=O)(OC[C@H]1C=C[C@@H](n2cnc3c(N)ncnc32)C1)Oc1ccccc1)C(=O)OC ; strain: IIIB ; method: cytopathic effect / MTS ; value: 1.3 µM
O=C(c1ccccc1)c1ccc2nc3n(c2c1)C(c1c(Cl)cccc1Cl)SC3 ; strain: IIIB ; method: cytopathic effect / MTT ; value: >1.3 µM
CCc1cc(NCc2nc3c(C)ccc(C)c3o2)c(=O)[nH]c1C ; strain: IIIB ; method: p24 ; value: <0.025 µM
Cc1cc(C#N)cc(C)c1Oc1ccc([N+](=O)[O-])c(NC2CCN(Cc3ccncc3)CC2)n1 ; strain: IIIB ; mutations: Resistant strain (K103N + Y181C) ; method: MTT ; value: 7.7 µM
COc1c(O)c(Br)c2c(c1OC)-c1c(c(Br)c(O)c(OC)c1OC)C[C@H](C)[C@H](C)C2 ; strain: IIIB ; method: cytopathic effect / MTT ; value: 0.52 µM
COC(=O)[C@H](Cc1ccc(OC(C)(C)C)cc1)NP(=O)(OC[C@H]1C=C[C@@H](n2cnc3c(N)ncnc32)C1)Oc1ccccc1 ; strain: IIIB ; method: cytopathic effect / MTS ; value: <1 µM
Cc1cc(C#N)cc(C)c1Oc1ccc([N+](=O)[O-])c(NC2CCN(Cc3ccc(S(N)(=O)=O)cc3)CC2)n1 ; strain: IIIB ; mutations: Resistant strain (K103N + Y181C) ; method: MTT ; value: >7.6 µM
C[C@H](NP(=O)(OC[C@H]1C=C[C@@H](n2cnc3c(N)ncnc32)C1)Oc1ccccc1)C(=O)OCC(C)(C)C ; strain: IIIB ; method: cytopathic effect / MTS ; value: >4 µM
C#Cc1ccc(Nc2nccc(Oc3c(C)cc(-c4cn(Cc5ccc(C(N)=O)cc5)nn4)cc3C)n2)cc1 ; strain: IIIB ; method: MTT ; value: 0.049 µM